Among the data in publication PMC9637222 (2022) are Kd values, retold here.

The target in test [1] is SicA N70A (tag-free, purified) (S. Typhimurium, UniProt P69066 1-165, N70A). The test is described as follows: ITC. Background: ITC needs no label: the signal is the heat of the interaction.
Test [2] deals with SicA K27A (tag-free, purified) (S. Typhimurium, UniProt P69066 1-165, K27A). The test is described as follows: ITC.

B1: SipB (tag-free, purified) (natural protein)
chain: MVNDASSISRSGYTQNPRLAEAAFEGVRKNTDFLKAADKAFKDVVATKAGDLKAGTKSGESAINTVGLKPPTDAAREKLSSEGQLTLLLGKLMTLLGDVSLSQLESRLAVWQAMIESQKEMGIQVSKEFQTALGEAQEATDLYEASIKKTDTAKSVYDAATKKLTQAQNKLQSLDPADPGYAQAEAAVEQAGKEATEAKEALDKATDATVKAGTDAKAKAEKADNILTKFQGTANAASQNQVSQGEQDNLSNVARLTMLMAMFIEIVGKNTEESLQNDLALFNALQEGRQAEMEKKSAEFQEETRKAEETNRIMGCIGKVLGALLTIVSVVAAVFTGGASLALAAVGLAVMVADEIVKAATGVSFIQQALNPIMEHVLKPLMELIGKAITKALEGLGVDKKTAEMAGSIVGAIVAAIAMVAVIVVVAVVGKGAAAKLGNALSKMMGETIKKLVPNVLKQLAQNGSKLFTQGMQRITSGLGNVGSKMGLQTNALSKELVGNTLNKVALGMEVTNTAAQSAGGVAEGVFIKNASEALADFMLARFAMDQIQQWLKQSVEIFGENQKVTAELQKAMSSAVQQNADASRFILRQSRA
Take B1: the values for the equilibrium dissociation constant (Kd) in test [1] and in test [2] were 570 nM and 10000 nM, respectively.

B2: SipC (tag-free, purified) (natural protein)
chain: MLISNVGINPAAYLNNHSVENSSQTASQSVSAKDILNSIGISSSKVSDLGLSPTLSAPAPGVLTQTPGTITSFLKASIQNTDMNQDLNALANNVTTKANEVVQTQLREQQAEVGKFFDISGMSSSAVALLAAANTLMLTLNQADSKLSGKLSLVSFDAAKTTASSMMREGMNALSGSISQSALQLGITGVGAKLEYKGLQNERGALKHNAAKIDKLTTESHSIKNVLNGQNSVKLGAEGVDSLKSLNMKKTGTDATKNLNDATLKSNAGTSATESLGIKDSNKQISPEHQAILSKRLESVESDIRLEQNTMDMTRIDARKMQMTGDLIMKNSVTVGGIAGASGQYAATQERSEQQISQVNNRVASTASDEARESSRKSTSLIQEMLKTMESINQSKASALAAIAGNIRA
In the case of B2, the affinity in test [1], expressed as Kd, was 550 nM.
